Compound potency records, mixed from different reports. Data source: NIAID ChemDB in PubChem.

Common to all: growth or infection tests; species: Mycobacterium tuberculosis

A number after MIC or MFC names an inhibition level or a share of isolates. Inhibition is in % at the dose shown (toxicity tests: loss of growth or viability). Neighbouring rows are from separate reports. ECn: concentration that inhibits the pathogen or its effect by n%. Blank or dashed fields: not listed here. MIC bound: limit read from a one-dose screen.

compound,strain,measure,method,dose,value
CO[C@H]1/C=C/O[C@@]2(C)Oc3c(C)c(O)c4c(O)c(c(/C=N/N5CCN(C)CC5)c(O)c4c3C2=O)NC(=O)/C(C)=C\C=C\[C@H](C)[C@H](O)[C@@H](C)[C@@H](O)[C@@H](C)[C@H](OC(C)=O)[C@@H]1C,Isolate L,MIC,-,-,>2 µg/mL
COc1ccc(/C=C/C(=O)O[C@H]2CC[C@@]3(C)C(CC[C@]4(C)C3CC=C3C5CC(C)(C)CC[C@]5(C(=O)O)CC[C@]34C)C2(C)C)cc1,H37Ra,MIC,resazurin,-,200 µg/mL
FC(F)(F)c1ccccc1NC(=S)Nc1ncc(C2CCC2)o1,MDR clinical isolate,MIC,agar,-,0.14 µM
COc1ccc2nc(Cl)c(C#N)nc2c1,H37Rv,EC50,-,-,>6.25 µg/mL
CC(=O)NC[C@H]1CN(c2ccc(N3CC4CC(CC#N)CC4C3)c(F)c2)C(=O)O1,H37Rv,MIC,resazurin,-,1 µg/mL
C=CCSc1nc2ccccc2[nH]1,My 331/88,MIC,-,-,500 µM
CCOc1cc(/C=N/N=c2\scc(-c3cc4cc(Br)ccc4oc3=O)n2CC)ccc1O,H37Rv,inhibition,-,12.5 µg/mL,86%
CC1(C)CC[C@]2(C(=O)O)CC[C@]3(C)C(=CC[C@@H]4[C@@]5(C)CC[C@H](O)C(C)(C)[C@@H]5CC[C@]43C)[C@@H]2C1,H37Ra,MIC,resazurin,-,50 µg/mL
CCSc1nc2ccccc2[nH]1,My 331/88,MIC,-,-,>1000 µM
CC/C(C)=C(/NC(=O)[C@H](C)NC(=O)[C@@H]1CCC=NN1C(=O)[C@@H](NC(=O)[C@H](C)NC(=O)C(N)(CO)CO)[C@H](C)N)C(=O)N[C@@H](CO)C(=O)O,H37Rv,MIC,-,-,50 µg/mL
C=C(C)[C@@H]1CC[C@]2(C(=O)O)CC[C@]3(C)C(CCC4[C@@]5(C)CC[C@H](OC(=O)/C=C/c6ccc(OC)cc6)C(C)(C)C5CC[C@]43C)C12,H37Ra,MIC,resazurin,-,>200 µg/mL
Cn1c([N+](=O)[O-])cnc1N1CCN(c2nncs2)C1=O,H37Rv,inhibition,BACTEC,12.5 µg/mL,-13%
O=[N+]([O-])c1ccnc(NC(=S)Nc2ncc(C3CCC3)o2)c1,MDR clinical isolate,MIC,agar,-,0.3 µM
O=C(COc1cnccn1)N/N=C1\SCC(=O)N1c1ccc(Cl)cc1Cl,H37Rv,MIC,-,-,148 µg/mL
CN1[C@@H]2CC[C@H]1CC(OC(=O)[C@H](CO)c1ccccc1)C2,H37Rv,MIC,BACTEC,-,≥12.8 µg/mL
CCCCN1C(=O)CS/C1=N\NC(=O)COc1cnccn1,H37Rv,MIC,-,-,156 µg/mL
Cc1ccc(C(=O)Oc2ccc(/C=C3\CCCCC3=O)cc2)cc1,H37Rv,inhibition,-,12.5 µg/mL,58%
O=c1cc(-c2ccccc2)oc2cc(O)c(O)c(O)c12,-,inhibition,fluorescence,200 µM,84.03%
COc1ccc(C(=O)Oc2ccc(/C=C3\CCCC(CN(C)C)C3=O)cc2)cc1,H37Rv,EC50,-,-,<12.5 µg/mL
CC(C)=CCC1C(=O)C(CC=C(C)C)(CC=C(C)C)C(O)C(C(=O)C(C)C)C1O,Isolate H,MIC,-,-,40.6 µg/mL
Cc1cc2c(cc1C)[n+](=O)c(C#N)c(Cl)n2[O-],H37Rv,EC50,-,-,<6.25 µg/mL
O=C(/C=C/c1ccc(Cl)cc1)Oc1ccc(/C=C2\CCC/C(=C\c3ccc(OC(=O)/C=C/c4ccc(Cl)cc4)cc3)C2=O)cc1,H37Rv,EC50,-,-,>12.5 µg/mL
COc1cc(/C=C/C(=O)O[C@H]2CC[C@@]3(C)C(CC[C@]4(C)C3CC=C3C5CC(C)(C)CC[C@]5(C(=O)O)CC[C@]34C)C2(C)C)ccc1OC(C)=O,H37Ra,MIC,resazurin,-,50 µg/mL
CN(C)c1ccc(NC(=S)Nc2ncc(C3CCC3)o2)cc1,MDR clinical isolate,MIC,agar,-,2.78 µM
COc1ccc2c(c1)n([O-])c(C#N)c(N1CCN(c3ccc([N+](=O)[O-])cc3)CC1)[n+]2=O,H37Rv,MIC,-,-,0.78 µg/mL
CC(C)(C)c1ccc(Cn2cnc([N+](=O)[O-])n2)cc1,DprE1-overexpressing,inhibition,turbidity,62 µM,90%
CC[C@@H](CO)NCCN[C@@H](CC)CO,Isolate O,MIC,-,-,>2.5 µg/mL
N#Cc1ncc(C(Cl)(Cl)Cl)nc1Cl,CS-R,MIC,-,-,3.1 µg/mL
CC1OC(OC2C(OC(=O)C34CCC(C)(C)CC3C3=CCC5C6(C)CC(O)C7OC8OC(CO)C(O)C(O)C8OC8OCC(O)C(O)C8OC(=O)CC(C)(O)CC(=O)OCC7(C)C6CCC5(C)C3(C)CC4)OCC(O)C2O)C(O)C(OC2OCC(O)C(O)C2O)C1O,-,inhibition,fluorescence,200 µM,0%
N#Cc1c(Cl)n([O-])c2ccc(-c3ccc([N+](=O)[O-])cc3)cc2[n+]1=O,H37Rv,EC50,-,-,<6.25 µg/mL
C#CCN(Cc1ccc2nc(N)[nH]c(=O)c2c1)c1ccc(C(=O)NC(CCC(=O)[O-])C(=O)[O-])cc1.[Na+].[Na+],H37Rv,inhibition,BACTEC,12.5 µg/mL,3%
CN(C)CC1CCC/C(=C\c2ccc(OC(=O)/C=C/c3ccc(Cl)c(Cl)c3)cc2)C1=O,H37Rv,inhibition,-,12.5 µg/mL,99%
O=c1oc2ccc(Br)cc2cc1-c1cs/c(=N\N=C\c2cc(Br)ccc2O)n1C1CCCCC1,H37Rv,MIC,-,-,>12.5 µg/mL
Cc1cc2nc(C#N)c(N3CCN(c4ccc([N+](=O)[O-])cc4)CC3)nc2cc1C,H37Rv,inhibition,-,6.25 µg/mL,0%
O=C1CCCCCCCCCCOCCCCO1,H37Rv,MIC bound,BACTEC,-,>12.5 µg/mL
N#CCC1CC2CN(c3ccc(N4C[C@H](Cn5ccnn5)OC4=O)cc3F)CC2C1,H37Rv,MIC,resazurin,-,2 µg/mL
C=C(C)[C@@H]1CC[C@]2(C(=O)O)CC[C@]3(C)C(CCC4[C@@]5(C)CC[C@H](OC(=O)/C=C/c6ccc(OC(C)=O)c(OC(C)=O)c6)C(C)(C)C5CC[C@]43C)C12,H37Ra,MIC,resazurin,-,200 µg/mL
O=C(COc1cnccn1)N/N=C1\SCC(=O)N1c1ccc(Cl)cc1,H37Rv,MIC,-,-,102 µg/mL
CC(N)C(=O)O,H37Rv,MIC,BACTEC,-,≥128 µg/mL
COc1ccc(/C=C/C(=O)O[C@H]2CC[C@@]3(C)C(CC[C@]4(C)C3CC=C3C5[C@@H](C)[C@H](C)CC[C@]5(C(=O)O)CC[C@]34C)C2(C)C)cc1,H37Ra,MIC,resazurin,-,100 µg/mL
N#Cc1nc2ccccc2nc1Cl,H37Rv,MIC,-,-,12.5 µg/mL
Cc1[nH]nc(C(=O)N/N=C/c2ccccc2Cl)c1N=NN(C)C,H37Rv,MIC bound,BACTEC,-,≤12.5 µg/mL
C/C=C(/C)C(=O)O[C@@H]1CC(C)(C)C[C@H]2C3=CC[C@@H]4[C@@]5(C)CCC(O)C(C)(C)[C@@H]5CC[C@@]4(C)[C@]3(C)CC[C@@]12C(=O)O,H37Rv,MIC,-,-,18 µg/mL
NNC(=O)c1ccncc1,H37Ra,MIC,resazurin,-,0.06 µg/mL
CC(C)OC(=O)c1ccc(CCC2=CC(=O)C(Br)=CC2=O)cc1,H37Rv,MIC bound,resazurin,-,>6.25 µg/mL
Fc1cccc(Cl)c1CSc1nc2ccccc2[nH]1,My 331/88,MIC,-,-,62 µM
CC(C)=CCCC(C)(OC1OC(CO)C(O)C(O)C1O)C1CCC2(C)C1C(O)CC1C3(C)CCC(O)C(C)(C)C3C(OC3OC(CO)C(O)C(O)C3OC3OCC(O)C(O)C3O)CC12C,-,inhibition,fluorescence,200 µM,0%
NNC(=O)c1ccncc1,H37Rv,MIC,agar,-,0.66 µM
COc1ccc(C2OC3=C(Nc4ccc(Cl)cc4N3)C2=O)cc1,H37Rv,inhibition,BACTEC,12.5 µg/mL,-13%
NNC(=O)c1ccc(Br)cc1,ATCC35801,MIC50,-,-,21.5 µg/mL
CC1CCC2(C(=O)OC3OC(COC4OC(CO)C(OC5OC(C)C(O)C(O)C5O)C(O)C4O)C(O)C(O)C3O)CCC3(C)C(=CCC4C5(C)CC(O)C(O)C(C)(CO)C5CCC43C)C2C1C,-,inhibition,fluorescence,200 µM,0%
CC1=NC(C(=O)c2ccccc2)C(=O)O1,H37Rv,MIC bound,BACTEC,-,>12.5 µg/mL
C=C(C)[C@@H]1CC[C@]2(C(=O)O)CC[C@]3(C)C(CCC4[C@@]5(C)CC[C@H](OC(=O)/C=C/c6ccc(Cl)cc6)C(C)(C)C5CC[C@]43C)C12,H37Ra,MIC,resazurin,-,>200 µg/mL
CCN(CC)Cc1cc(Nc2c3ccccc3nc3c2[nH]c2ccccc23)cc(CN(CC)CC)c1O,H37Rv,MIC bound,resazurin,-,>6.25 µg/mL
FC(F)(F)c1ccc(CSc2nc3ccccc3[nH]2)cc1,My 331/88,MIC,-,-,16 µM
NNC(=O)c1ccncc1,MUN (VM-R),MIC,-,-,0.1 µg/mL
COc1ccc(-c2oc3c(CC=C(C)C)c(OC4OC(CO)C(O)C(O)C4O)cc(O)c3c(=O)c2OC2OC(C)C(O)C(O)C2O)cc1,-,inhibition,fluorescence,200 µM,74.34%
Cc1nn2c(=O)c([N+](=O)[O-])c(/C=C/c3ccco3)nc2s1,H37Rv,inhibition,resazurin,6.25 µg/mL,46%
S=C(Nc1cc(Br)cc(Br)n1)Nc1ncc(C2CCC2)o1,H37Rv,MIC,agar,-,0.23 µM
NNC(=O)c1cn(C2CC2)c2cc(N3CCNCC3)c(F)cc2c1=O,ATCC35801,MIC50,-,-,36.4 µg/mL
CCOc1cc(/C=N/N=c2\scc(-c3cc4ccccc4oc3=O)n2CC)ccc1O,H37Rv,MIC,-,-,>12.5 µg/mL
CCCCSc1nc2ccccc2[nH]1,My 331/88,MIC,-,-,>250 µM
CCCCn1c(-c2ccc(F)cc2)cs/c1=N\NC(=O)COc1cnccn1,H37Rv,MIC,-,-,15 µg/mL
NNC(=O)c1c(O)ccc2ccccc12,H37Rv,MIC,BACTEC,-,≥12.5 µg/mL
CO[C@H]1/C=C/O[C@@]2(C)Oc3c(C)c(O)c4c(O)c(c5c(c4c3C2=O)NC2(CCN(CC(C)C)CC2)N=5)=NC(=O)/C(C)=C\C=C\[C@H](C)[C@H](O)[C@@H](C)[C@@H](O)[C@@H](C)[C@H](OC(C)=O)[C@@H]1C,15 isolates (SER531LEU),MIC,-,-,>5 µg/mL
CC1(O)Nc2nc3c(ncn3[C@@H]3O[C@H](CO)[C@@H](O)[C@H]3O)c(=O)n2C1O,H37Rv,inhibition,resazurin,6.25 µg/mL,25%
N#Cc1c(N)[n+]([O-])c2ccc(Cl)cc2[n+]1[O-],H37Rv,EC50,-,-,<6.25 µg/mL
CCCCCCSc1nc2ccccc2[nH]1,My 331/88,MIC,-,-,62 µM
Cc1cnc2cc(Cl)ccc2c1NCCNCCO,H37Rv,MIC bound,-,-,>6.25 µg/mL
O=[N+]([O-])c1cccc(F)c1CSc1nc2ccccc2[nH]1,My 331/88,MIC,-,-,125 µM
CC1(c2ccc3c(c2)OCO3)OC(CCl)CS1,H37Rv,inhibition,BACTEC,12.5 µg/mL,-26%
O=C(COc1cnccn1)N/N=c1\scc(-c2ccc(O)cc2)n1-c1ccc(Cl)cc1,H37Rv,MIC,-,-,12.4 µg/mL
CN(C)CC1CCCC(CN2CCCCC2)C1=O,H37Rv,MIC bound,BACTEC,-,≤12.5 µg/mL
O=C(COc1cnccn1)N/N=c1\scc(-c2ccccc2)n1-c1ccc(Cl)cc1Cl,H37Rv,MIC,-,-,23 µg/mL
Cl.Cl.N[C@@H](Cc1cnc[nH]1)C(=O)O,H37Rv,MIC,BACTEC,-,≥128 µg/mL
C=CCn1c(-c2cc3ccccc3oc2=O)cs/c1=N\N=C\c1ccc(Cl)cc1,H37Rv,inhibition,-,12.5 µg/mL,36%
Clc1nc2nc(Cl)c(Cl)n2nc1Cl,H37Rv,MIC bound,BACTEC,-,>12.5 µg/mL
CN(C)CC1CCC/C(=C\c2ccc(OC(=O)/C=C/c3ccc(Cl)cc3)cc2)C1=O,H37Rv,EC50,-,-,<12.5 µg/mL
Cc1c(C(=O)/C=C/c2ccccc2[N+](=O)[O-])[n+](=O)c2ccccc2n1[O-],INH-r,MIC,-,-,3.1 µg/mL
O=[N+]([O-])c1cccc(CSc2nc3ccccc3[nH]2)c1,My 331/88,MIC,-,-,>125 µM

For reference, 12 entries again:

| compound | strain | measure | method | dose | value |
|---|---|---|---|---|---|
| CC(C)=CCCC(C)(OC1OC(CO)C(O)C(O)C1O)C1CCC2(C)C1C(O)CC1C3(C)CCC(O)C(C)(C)C3C(OC3OC(CO)C(O)C(O)C3OC3OCC(O)C(O)C3O)CC12C | - | inhibition | fluorescence | 200 µM | 0% |
| O=c1cc(-c2ccccc2)oc2cc(O)c(O)c(O)c12 | - | inhibition | fluorescence | 200 µM | 84.03% |
| CCSc1nc2ccccc2[nH]1 | My 331/88 | MIC | - | - | >1000 µM |
| CCCCSc1nc2ccccc2[nH]1 | My 331/88 | MIC | - | - | >250 µM |
| CN1[C@@H]2CC[C@H]1CC(OC(=O)[C@H](CO)c1ccccc1)C2 | H37Rv | MIC | BACTEC | - | ≥12.8 µg/mL |
| N#Cc1nc2ccccc2nc1Cl | H37Rv | MIC | - | - | 12.5 µg/mL |
| COc1ccc(/C=C/C(=O)O[C@H]2CC[C@@]3(C)C(CC[C@]4(C)C3CC=C3C5CC(C)(C)CC[C@]5(C(=O)O)CC[C@]34C)C2(C)C)cc1 | H37Ra | MIC | resazurin | - | 200 µg/mL |
| CC(C)(C)c1ccc(Cn2cnc([N+](=O)[O-])n2)cc1 | DprE1-overexpressing | inhibition | turbidity | 62 µM | 90% |
| CC(N)C(=O)O | H37Rv | MIC | BACTEC | - | ≥128 µg/mL |
| C#CCN(Cc1ccc2nc(N)[nH]c(=O)c2c1)c1ccc(C(=O)NC(CCC(=O)[O-])C(=O)[O-])cc1.[Na+].[Na+] | H37Rv | inhibition | BACTEC | 12.5 µg/mL | 3% |
| COc1cc(/C=C/C(=O)O[C@H]2CC[C@@]3(C)C(CC[C@]4(C)C3CC=C3C5CC(C)(C)CC[C@]5(C(=O)O)CC[C@]34C)C2(C)C)ccc1OC(C)=O | H37Ra | MIC | resazurin | - | 50 µg/mL |
| CN(C)c1ccc(NC(=S)Nc2ncc(C3CCC3)o2)cc1 | MDR clinical isolate | MIC | agar | - | 2.78 µM |